According to US20230014151A1, “COMBINATION ANTIVIRAL THERAPY FOR MEASLES” (The Trustees of Columbia University in the City of New York, priority 2019, published 2023):

Tests used:
MeV = assay: lethal MeV encephalitis in IFNAR KO mice, intranasal peptide; assay type: in vivo; settings: intranasal administration
CNS-adapted MV = assay: MeV infection of human motor neurons, CNS-adapted virus

With CC[C@H](C)[C@H](NC(=O)[C@H](C)NC(=O)[C@H](CC(N)=O)NC(=O)CNC(=O)[C@H](CC(C)C)NC(=O)[C@H](CC(N)=O)NC(=O)[C@@H](NC(=O)CNC(=O)[C@@H](NC(=O)[C@H](CC(=O)O)NC(=O)[C@H](CC(C)C)NC(=O)[C@H](CCCNC(=N)N)NC(=O)[C@H](CCC(=O)O)NC(=O)[C@H](CC(C)C)NC(=O)[C@H](CO)NC(=O)[C@@H](NC(=O)[C@@H]1CCCN1C(=O)[C@@H]1CCCN1C(C)=O)[C@@H](C)CC)C(C)C)[C@@H](C)O)C(=O)N[C@@H](C)C(=O)N[C@@H](CCCCN)C(=O)N[C@@H](CC(C)C)C(=O)N[C@@H](CCC(=O)O)C(=O)N[C@@H](CC(=O)O)C(=O)N[C@@H](C)C(=O)N[C@@H](CCCCN)C(=O)N[C@@H](CCC(=O)O)C(=O)N[C@@H](CC(C)C)C(=O)N[C@@H](CC(C)C)C(=O)N[C@@H](CCC(=O)O)C(=O)N[C@@H](CO)C(=O)N[C@@H](CO)C(=O)N[C@@H](CC(=O)O)C(=O)N[C@@H](CCC(N)=O)C(=O)N[C@H](C(=O)N[C@@H](CC(C)C)C(=O)N[C@@H](CCCNC(=N)N)C(=O)NCC(=O)N[C@@H](CO)C(=O)NCC(=O)N[C@@H](CO)C(=O)NCC(=O)N[C@@H](CSC1CC(=O)N(CCCC(=O)NCCOCCOCCOCCOCCC(=O)NCCN(CCNC(=O)CCOCCOCCOCCOCCNC(=O)CCCN2C(=O)CC(SC[C@H](NC(=O)CNC(=O)[C@H](CO)NC(=O)CNC(=O)[C@H](CO)NC(=O)CNC(=O)[C@H](CCCNC(=N)N)NC(=O)[C@H](CC(C)C)NC(=O)[C@@H](NC(=O)[C@H](CCC(N)=O)NC(=O)[C@H](CC(=O)O)NC(=O)[C@H](CO)NC(=O)[C@H](CO)NC(=O)[C@H](CCC(=O)O)NC(=O)[C@H](CC(C)C)NC(=O)[C@H](CC(C)C)NC(=O)[C@H](CCC(=O)O)NC(=O)[C@H](CCCCN)NC(=O)[C@H](C)NC(=O)[C@H](CC(=O)O)NC(=O)[C@H](CCC(=O)O)NC(=O)[C@H](CC(C)C)NC(=O)[C@H](CCCCN)NC(=O)[C@H](C)NC(=O)[C@@H](NC(=O)[C@H](C)NC(=O)[C@H](CC(N)=O)NC(=O)CNC(=O)[C@H](CC(C)C)NC(=O)[C@H](CC(N)=O)NC(=O)[C@@H](NC(=O)CNC(=O)[C@@H](NC(=O)[C@H](CC(=O)O)NC(=O)[C@H](CC(C)C)NC(=O)[C@H](CCCNC(=N)N)NC(=O)[C@H](CCC(=O)O)NC(=O)[C@H](CC(C)C)NC(=O)[C@H](CO)NC(=O)[C@@H](NC(=O)[C@@H]3CCCN3C(=O)[C@@H]3CCCN3C(C)=O)[C@@H](C)CC)C(C)C)[C@@H](C)O)[C@@H](C)CC)[C@@H](C)CC)C(=O)O)C2=O)CCO[C@H]2CC[C@@]3(C)C(=CC[C@H]4[C@@H]5CC[C@H]([C@H](C)CCCC(C)C)[C@@]5(C)CC[C@@H]43)C2)C1=O)C(=O)O)[C@@H](C)CC (some centres unmarked) [[HRC450-485-peg4]2-chol] as the compound, how does the “protection from lethal MeV encephalitis” value (MeV) read?
Its value is “protects IFNAR KO mice from lethal MeV encephalitis”.

What about the “spread of CNS-adapted MV in human motor neurons” value (CNS-adapted MV) of the same compound?
Its value is “blocks spread of virus only at the highest concentration”.
